From ChEMBL document CHEMBL1148631, “Synthesis of cyclopentenyl carbocyclic nucleosides as potential antiviral agents against orthopoxviruses and SARS” (J Med Chem, 2006)

Experiments:
Cowpox virus [1] = assay: Selective index against Cowpox virus; assay type: functional
Vaccinia virus = assay: Selective index against Vaccinia virus; assay type: functional, Orthopoxvirus vaccinia
Cowpox virus [2] = assay: Antiviral activity against Cowpox virus; assay type: functional, organism-based

## Nc1ccn(C[C@@H](CO)OCP(=O)(O)O)c(=O)n1.O.O
Cowpox virus [1]
  Selectivity index: > 21
Vaccinia virus
  Selectivity index: > 52

## Nc1ccn(C[C@@H](CO)OCP(=O)(O)O)c(=O)n1
Cowpox virus [2]
  EC50: 15 µM
